Results deposited as PubChem BioAssay AID624099 (ICCB-Longwood, 2012)
Purpose: 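Host factors E2 relies on to silence an HPV18 LCR reporter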 (primary screen). System: human C33A cervical carcinoma cells (HPV-negative) stably expressing BPV1 E2 and an HPV18 LCR luciferase reporter. Knock-down reagent: siRNA pool against human genes, 40 nM. Time to read-out: 72 h. Measured: 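HPV18 LCR reporter light per well, converted to plate-wise z-scores that exclude control wells, and averaged over triplicate plates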. Direction: mean z-score and z-score: higher = stronger reporter signal, weaker E2 silencing. Active means: 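Hit if mean z-score reaches 2 and two or more of three replicate z-scores also reach 2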.
Here is a random part of about 21,000 reagents tested. In the full data, 497 (2.4%) are marked active. 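Higher z means weaker E2 silencing; only reporter increases were scored, and knock-downs that hurt cell survival may mask genuine repressor factors.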 Reagents against one gene are numbered here. No sequences are given here.

| mean z-score | z-score, replicate A | z-score, replicate B | z-score, replicate C | call | target gene | reagent |
| --- | --- | --- | --- | --- | --- | --- |
| -0.2 | -0.27 | -0.21 | -0.13 | inactive | NUP153 (nucleoporin 153) | 1 |
| -2.19 | -2.35 | -2.08 | -2.15 | inactive | TBC1D24 (TBC1 domain family member 24) | 1 |
| -0.42 | -0.6 | -0.45 | -0.22 | inactive | FAM74A1 (family with sequence similarity 74 member A1) | 1 |
| -0.47 | -0.47 | -0.8 | -0.14 | inactive | H2AC15 (H2A clustered histone 15) | 1 |
| -0.43 | -0.73 | -0.24 | -0.32 | inactive | HOXA7 (homeobox A7) | 1 |
| 0.42 | 0.02 | 0.71 | 0.52 | inactive | SAR1A (secretion associated Ras related GTPase 1A) | 1 |
| -0.75 | -1.4 | -0.69 | -0.14 | inactive | TRUB1 (TruB pseudouridine synthase family member 1) | 1 |
| -0.41 | -0.47 | -0.27 | -0.48 | inactive | KCNS3 | 1 |
| 0.4 | 0.16 | 0.72 | 0.33 | inactive | CSF3R (colony stimulating factor 3 receptor) | 1 |
| 0.05 | -0.07 | 0.12 | 0.1 | inactive | IL10RB (interleukin 10 receptor subunit beta) | 1 |
| -0.12 | -0.12 | -0.03 | -0.22 | inactive | PEG3 (paternally expressed 3) | 1 |
| 0.15 | 0.25 | 0.41 | -0.21 | inactive | PDE8A (phosphodiesterase 8A) | 1 |
| 2.73 | 2.98 | 2.87 | 2.35 | active | TNFRSF8 (TNF receptor superfamily member 8) | 1 |
| -0.65 | -0.54 | -0.77 | -0.63 | inactive | TSLIG2 (tRNA splicing ligase complex subunit 2) | 1 |
| -1 | -1.29 | -0.89 | -0.81 | inactive | GRK7 (G protein-coupled receptor kinase 7) | 1 |
| 0.83 | 0.79 | 1.08 | 0.62 | inactive | TNNT2 (troponin T2, cardiac type) | 1 |
| -1.2 | -1.14 | -1.37 | -1.09 | inactive | SLC16A13 | 1 |
| -0.22 | -0.29 | -0.15 | -0.23 | inactive | GPAT4 (glycerol-3-phosphate acyltransferase 4) | 1 |
| -0.13 | -0.06 | -0.35 | 0.02 | inactive | ANKRD52 (ankyrin repeat domain 52) | 1 |
| 0.48 | 0.28 | 0.86 | 0.31 | inactive | TEX28 (testis expressed 28) | 1 |
| 0.94 | 0.65 | 0.98 | 1.19 | inactive | DDB2 (damage specific DNA binding protein 2) | 1 |
| 1.75 | 1.83 | 1.44 | 1.97 | inactive | BRSK1 (BR serine/threonine kinase 1) | 1 |
| -0.36 | -0.35 | -0.57 | -0.17 | inactive | HMGCR (3-hydroxy-3-methylglutaryl-CoA reductase) | 1 |
| -1.06 | -0.97 | -1.31 | -0.9 | inactive | ZNF747 (zinc finger protein 747) | 1 |
| -0.72 | -0.06 | -1.05 | -1.06 | inactive | LOC286297 | 1 |
| -0.48 | -0.31 | -0.76 | -0.36 | inactive | MT1E (metallothionein 1E) | 1 |
| 2.39 | 2.37 | 2.65 | 2.16 | active | TBX10 (T-box transcription factor 10) | 1 |
| 0.4 | 0.72 | 0.37 | 0.12 | inactive | MECR (mitochondrial trans-2-enoyl-CoA reductase) | 1 |
| 0.07 | 0.02 | 0.15 | 0.04 | inactive | COA8 (cytochrome c oxidase assembly factor 8) | 1 |
| -0.27 | -0.03 | -0.49 | -0.3 | inactive | LOC401268 (retired record) | 1 |
| -0.03 | 0.45 | -0.05 | -0.47 | inactive | ARHGAP20 (Rho GTPase activating protein 20) | 1 |
| 1.03 | 1.18 | 0.8 | 1.12 | inactive | FPR2 (formyl peptide receptor 2) | 1 |
| -0.03 | 0.04 | -0.38 | 0.26 | inactive | ZNF572 (zinc finger protein 572) | 1 |
| -1.33 | -1.11 | -1.31 | -1.55 | inactive | TMOD3 (tropomodulin 3) | 1 |
| 0.25 | 0.19 | 0.33 | 0.23 | inactive | PROZ (protein Z, vitamin K dependent plasma glycoprotein) | 1 |
| -0.71 | -0.66 | -0.95 | -0.51 | inactive | ANKMY1 (ankyrin repeat and MYND domain containing 1) | 1 |
| -0.59 | -0.42 | -0.76 | -0.61 | inactive | LHFPL5 (LHFPL tetraspan subfamily member 5) | 1 |
| 0.53 | 0.32 | 1.03 | 0.23 | inactive | BCAR4 (breast cancer anti-estrogen resistance 4) | 1 |
| 0.11 | 0.18 | 0.23 | -0.07 | inactive | DNAH9 (dynein axonemal heavy chain 9) | 1 |
| 0.78 | 1.16 | 0.4 | 0.78 | inactive | DNAH5 (dynein axonemal heavy chain 5) | 1 |
| 0.65 | 1.12 | 0.61 | 0.23 | inactive | DNAH5 (dynein axonemal heavy chain 5) | 2 |
| 1.04 | 0.99 | 1.06 | 1.07 | inactive | SELL (selectin L) | 1 |
| -0.84 | -0.58 | -0.98 | -0.97 | inactive | RAB27B (RAB27B, member RAS oncogene family) | 1 |
| -0.8 | -0.37 | -0.93 | -1.09 | inactive | FANCG (FA complementation group G) | 1 |
| -1.28 | -1.25 | -1.54 | -1.05 | inactive | CRYM (crystallin mu) | 1 |
| -1.58 | -1.67 | -1.57 | -1.5 | inactive | LOC390975 (retired record) | 1 |
| 0.41 | 0.18 | 0.59 | 0.47 | inactive | ADAMTS1 (ADAM metallopeptidase with thrombospondin type 1 motif 1) | 1 |
| 1.47 | 1.26 | 1.46 | 1.7 | inactive | INPPL1 (inositol polyphosphate phosphatase like 1) | 1 |
| -0.31 | -0.22 | -0.37 | -0.33 | inactive | LILRA2 (leukocyte immunoglobulin like receptor A2) | 1 |
| -0.41 | -0.49 | -0.36 | -0.37 | inactive | MFAP3L (microfibril associated protein 3 like) | 1 |
| 0.45 | 0.53 | 0.44 | 0.39 | inactive | CSNK1G3 (casein kinase 1 gamma 3) | 1 |
| -0.57 | -0.63 | -0.71 | -0.36 | inactive | MAB21L3 (mab-21 like 3) | 1 |
| 1.1 | 1.06 | 0.99 | 1.27 | inactive | CCNC (cyclin C) | 1 |
| -0.06 | 0 | -0.04 | -0.14 | inactive | ASPRV1 (aspartic peptidase retroviral like 1) | 1 |
| 1.21 | 1 | 1.01 | 1.62 | inactive | SLC2A8 | 1 |
| -0.3 | -0.29 | -0.72 | 0.11 | inactive | UBA6 (ubiquitin like modifier activating enzyme 6) | 1 |
| 0.19 | -0.01 | 0.31 | 0.28 | inactive | LOC389415 (retired record) | 1 |
| 0.78 | 0.54 | 0.84 | 0.95 | inactive | OR7D4 (olfactory receptor family 7 subfamily D member 4) | 1 |
| -0.62 | -0.76 | -0.78 | -0.32 | inactive | ZBED2 (zinc finger BED-type containing 2) | 1 |
| 0.38 | 0.14 | 0.45 | 0.56 | inactive | ADAMTS18 (ADAM metallopeptidase with thrombospondin type 1 motif 18) | 1 |
| -0.55 | -0.85 | -0.49 | -0.31 | inactive | SSH2 (slingshot protein phosphatase 2) | 1 |
| -2.12 | -1.93 | -2.13 | -2.31 | inactive | TAF1 (TATA-box binding protein associated factor 1) | 1 |
| 1.03 | 1.05 | 0.98 | 1.06 | inactive | AGPAT4 (1-acylglycerol-3-phosphate O-acyltransferase 4) | 1 |
| -0.41 | -0.51 | -0.28 | -0.45 | inactive | POMZP3 (POM121 and ZP3 fusion) | 1 |
| -0.78 | -0.72 | -0.5 | -1.12 | inactive | C6orf89 (chromosome 6 open reading frame 89) | 1 |
| 0.77 | 0.81 | 0.69 | 0.8 | inactive | ZP2 (zona pellucida glycoprotein 2) | 1 |
| 0.57 | 0.51 | 0.72 | 0.49 | inactive | LOC387898 (retired record) | 1 |
| 0.17 | 0.31 | 0.29 | -0.1 | inactive | PKIB (cAMP-dependent protein kinase inhibitor beta) | 1 |
| -1.18 | -1.08 | -1.19 | -1.27 | inactive | HCN4 | 1 |
| 2.37 | 2.36 | 2.07 | 2.67 | active | ZFP91 (ZFP91 zinc finger protein, atypical E3 ubiquitin ligase) | 1 |
| 1.01 | 0.73 | 1.04 | 1.28 | inactive | TNNI2 (troponin I2, fast skeletal type) | 1 |
| -0.27 | -0.15 | -0.41 | -0.25 | inactive | UBAC2 (UBA domain containing 2) | 1 |
| 0.06 | 0.03 | -0.04 | 0.2 | inactive | SDHAP1 (SDHA pseudogene 1) | 1 |

Entries listed so far marked active, once more:
| mean z-score | z-score, replicate A | z-score, replicate B | z-score, replicate C | call | target gene | reagent |
| --- | --- | --- | --- | --- | --- | --- |
| 2.73 | 2.98 | 2.87 | 2.35 | active | TNFRSF8 (TNF receptor superfamily member 8) | 1 |
| 2.39 | 2.37 | 2.65 | 2.16 | active | TBX10 (T-box transcription factor 10) | 1 |
| 2.37 | 2.36 | 2.07 | 2.67 | active | ZFP91 (ZFP91 zinc finger protein, atypical E3 ubiquitin ligase) | 1 |
